Values of other authors as cited in article PMC2770896, “Inhibition of Neuraminidase Inhibitor-Resistant Influenza Virus by DAS181, a Novel Sialidase Fusion Protein” (PLoS ONE, 2009).

Test system: IFV A/Victoria/3/75 passaged with peramivir, HA mutation K186E
Settings: tested form: tartrate; cited from earlier work

CCC(CC)O[C@@H]1C=C(C(=O)O)C[C@H](N)[C@H]1NC(C)=O [oseltamivir, oseltamivir carboxylate]
NAI resistance in vitro: strongly pan-NAI resistant
